Data on twelve substances can be found in PMC8883962.

As usually defined, the Kd is the free concentration of one partner at which half of the binding sites on the other are occupied at equilibrium, for simple one-to-one binding. A high value points to a looser complex.

The first experiment has as its target Finegoldia Protein L (PpL) (Finegoldia magna) (UniProt Q51918). The experiment is described as follows: BLI. (In general: BLI is a label-free optical method that tracks binding on a fibre tip over time.)
Trastuzumab Vκ5–VH3 IgG1 (antibody): the dissociation constant Kd is 1.75 nM.
In the case of Pertuzumab Vκ2–VH6 IgG1 (antibody), the Kd worked out at 0.72 nM.
Pertuzumab Vκ2–VH1 IgG1 (antibody) yielded a Kd of 149 nM.
Still for that read-out and setting: to Trastuzumab Vκ2–VH6 IgG1 (antibody) belongs 190 nM.
Trastuzumab Vκ2–VH2 IgG1 (antibody) yielded a dissociation constant Kd of 78.6 nM.
Pertuzumab Vκ2–VH5 IgG1 (antibody) showed a dissociation constant (Kd) of 0.93 nM.
The substance Trastuzumab Vκ2–VH1 IgG1 (antibody) showed a Kd of 124 nM.
The same measure, in the same setting: the figure for Trastuzumab Vκ2–VH7 IgG1 (antibody) is 9.79 nM.

A further experiment concerns the target Staphylococcal Protein A (SpA) (Staphylococcus aureus) (UniProt P38507). Briefly: BLI.
“Pertuzumab Vκ2–VH7 IgG1 (from UniProt P01857)” registered a Kd of 1.15 nM.
In the case of “Pertuzumab Vκ5–VH7 IgG1 (from UniProt P01857)”, the equilibrium dissociation constant (Kd) was 1.3 nM.
“Trastuzumab Vκ2–VH1 IgG1 (from UniProt P01857)” had a Kd of 1.49 nM.
For “Trastuzumab Vκ5–VH3 IgG1 (from UniProt P01857)”, the Kd stood at 0.72 nM.
